For nine compounds, fold change (FC) results are on record in ChEMBL document CHEMBL1157366 (Antimicrob Agents Chemother, 2007).

Molecules are shown by their SMILES.

In the test the target is T1, Lethal factor (Bacillus anthracis) (UniProt P15917).
T1 sequence (whole entry): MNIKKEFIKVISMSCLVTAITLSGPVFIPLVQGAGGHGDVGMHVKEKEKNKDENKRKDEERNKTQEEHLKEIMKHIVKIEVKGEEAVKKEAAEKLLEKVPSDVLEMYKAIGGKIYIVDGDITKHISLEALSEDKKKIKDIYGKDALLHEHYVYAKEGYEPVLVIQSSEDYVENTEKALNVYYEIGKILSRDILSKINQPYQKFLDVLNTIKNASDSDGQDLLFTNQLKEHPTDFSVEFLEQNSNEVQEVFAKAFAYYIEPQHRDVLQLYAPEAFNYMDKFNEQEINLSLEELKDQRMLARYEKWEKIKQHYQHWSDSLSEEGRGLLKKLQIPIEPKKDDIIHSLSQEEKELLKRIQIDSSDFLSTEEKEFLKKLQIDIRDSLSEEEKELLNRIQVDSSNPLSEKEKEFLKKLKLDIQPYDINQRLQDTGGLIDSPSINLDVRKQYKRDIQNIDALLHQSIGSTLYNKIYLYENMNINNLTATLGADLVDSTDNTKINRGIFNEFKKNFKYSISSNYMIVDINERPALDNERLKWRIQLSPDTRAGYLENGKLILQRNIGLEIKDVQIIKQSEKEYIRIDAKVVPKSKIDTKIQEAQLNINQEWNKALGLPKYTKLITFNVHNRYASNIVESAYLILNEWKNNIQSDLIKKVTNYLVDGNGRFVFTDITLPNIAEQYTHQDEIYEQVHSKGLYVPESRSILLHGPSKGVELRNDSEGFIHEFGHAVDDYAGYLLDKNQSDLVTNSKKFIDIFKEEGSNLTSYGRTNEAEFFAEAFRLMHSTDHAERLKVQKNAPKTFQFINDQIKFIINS
In words: Protection against Bacillus anthracis lethal toxin-mediated cytotoxicity in mouse RAW264.7 cells assessed as change in viability at 0.125 to 12.5 uM relative to toxin-treated control. The class given is cell-based.
As to `Oc1ccc(-c2nc(-c3ccc(F)cc3)c(-c3ccncc3)[nH]2)cc1`, the fold change (FC) is 4.2.

Turning to `CN(C)CCCn1cc(C2=C(c3c[nH]c4ccccc34)C(=O)NC2=O)c2ccccc21`, the fold change (FC) was found to be 6.7.

For the compound `CN(C(=O)Cc1ccc(Cl)c(Cl)c1)C1CCCCC1N1CCCC1` (centres undefined), the fold change (FC) is 5.2.

For `CC(C)COCC(CN(Cc1ccccc1)c1ccccc1)N1CCCC1` (centres undefined) [BEPRIDIL], the fold change (FC) amounted to 8.8.

Take `O=S(=O)(c1cccc2c(Cl)cccc12)N1CCCNCC1`: the fold change (FC) worked out at 2.8.

For the compound `CC1=C(C(=O)OC(C)C)[C@@H](c2cccc3nonc23)C([N+](=O)[O-])=C(C)N1`, the fold change (FC) turned out to be 2.8.

Consider `C[S+]([O-])c1ccc(-c2nc(-c3ccc(F)cc3)c(-c3ccncc3)[nH]2)cc1` (centres undefined), for which the fold change (FC) amounted to 4.3.

Consider `CCCCCCCCCCCCC/C=C/[C@@H](O)[C@H](CO)N(C)C`, for which the fold change (FC) was determined as 6.4.

Consider `COC(=O)C1=C(C)NC(C)=C(C(=O)OCCN(C)Cc2ccccc2)C1c1cccc([N+](=O)[O-])c1` (centres undefined), for which the fold change (FC) was found to be 5.6.
